Pooled drug test results. Numbers come from NIAID ChemDB, via PubChem.

All rows: tests on isolated targets; agent: HIV-1; protein: Integrase; endpoint: IC50

An empty or dashed field is not shown. Conditions beyond the fields shown may differ between rows. ICn is the concentration giving n% inhibition.

compound,strain or isolate,read by,value
N#CC(C#N)=NNc1ccc(S(=O)(=O)c2ccc(NN=C(C#N)C#N)cc2)cc1,,disintegration,63.5 µM
Cn1c(=O)c2cc3c(=O)n(C)c(=O)n(C)c3nc2n(C)c1=O,,3′ processing,>250 µM
COc1ccc2c(c1)C(=O)N1CSCC1C(=O)S2,RF,3′ processing,215 µM
COc1nc(=O)[nH]c2c1C(c1ccc([N+](=O)[O-])cc1)c1c(OC)nc(=O)[nH]c1O2,,3′ processing,>250 µM
O[C@H](c1cc(C(F)(F)F)nc2c(C(F)(F)F)cccc12)[C@@H]1CCCCN1,,3′ processing / substrate cleavage,>100 µM
O=C1C(=O)N(CC2CC2)C(c2ccccc2)/C1=C(/O)c1ccccc1,,strand transfer,>100 µM
O=C1Sc2ccc(Cl)cc2C(=O)N2CCSC12,RF,strand transfer,90 µM
O=[N+]([O-])c1ccc(N=Nc2c(S(=O)(=O)O)cc3cc(S(=O)(=O)O)cc(O)c3c2O)cc1,,,97 µM
O=CNc1ccc(S(=O)(=O)c2ccc(NC=O)cc2)cc1,,strand transfer,>100 µM
Cc1c2cc[n+](C)cc2c(C)c2c1[nH]c1ccc(O)cc12,,3′ processing / substrate cleavage,10.1 µM
COc1ccc(-c2cc(=O)c3c(O)cc(O)cc3o2)cc1Oc1ccc(-c2cc(=O)c3c(O)cc(O)cc3o2)cc1,,3′ processing,>250 µM
O=S(=O)(O)c1ccc2c(N=Nc3cccc4ccccc34)c(O)c(S(=O)(=O)O)cc2c1,,,83.6 µM
O=[N+]([O-])c1cc(S(=O)(=O)c2ccc(O)c([N+](=O)[O-])c2)ccc1O,,strand transfer,>100 µM
COc1c(-c2ccc(O)c(O)c2)oc2c(O)c(O)cc(O)c2c1=O,,3′ processing,0.7 µM
NC(CCSSCCC(N)P(=O)(O)O)P(=O)(O)O,RF,strand transfer,294 µM
CC[C@@]1(O)C(=O)NCc2c1cc1n(c2=O)Cc2cc3ccccc3nc2-1,,absorbance,>100 µM
O/N=C1\C(=C\c2ccc3c(c2)OCCO3)CCCC1C(NO)c1ccc2c(c1)OCCO2,RF,3′ processing,>200 µM
COc1cc(Oc2c(O)c(C)c(OC)c(C(C)=O)c2O)c(C(C)=O)c(O)c1C,,3′ processing,>250 µM
CC(C)CCCCCCCCCCCSCNc1ccc(S(=O)(=O)c2ccc(NCSCCCCCCCCCCCC(C)C)cc2)cc1,,strand transfer,90 µM
CCN(CCO)CCCC(C)Nc1ccnc2cc(Cl)ccc12,,strand transfer,>100 µM
C=C1c2c(O)c(C)c(O)c(C(C)=O)c2OC12CC(=O)C(C(=O)O)=C2C,,3′ processing,212 µM
NCCCCNCCCN,,strand transfer,>100 µM
COC(=O)C(=O)c1c(-c2ccc(Cl)c(Cl)c2)[nH]c2[nH]n(-c3ccccc3)c(=O)c2c1=O,,3′ processing,143 µM
Cc1cc(S(=O)(=O)Nc2nc3cscc3c(=O)[nH]2)c(SCc2ccccc2)cc1Cl,,strand transfer,55 µM
Cc1cnc(NCCCN(C)C)c2c1[nH]c1ccc3cc(O)ccc3c12,,3′ processing / substrate cleavage,33.4 µM
COc1cccc2c1C(=O)c1c(O)c3c(c(O)c1C2=O)C[C@@](O)(C(=O)CO)C[C@@H]3O[C@H]1C[C@H](N(C)C)[C@H](O)[C@H](C)O1,RF,3′ processing,2.3 µM
CCC(CO)NC(=O)Nc1ccc(S(=O)(=O)c2ccc([N+](=O)[O-])cc2)cc1,,strand transfer,>100 µM
COc1c(OC)c(OC)c(-c2cc(=O)c3c(OC)c(OC)c(OC)c(OC)c3o2)c(OC)c1OC,,3′ processing,>250 µM
O=C1Sc2ccccc2C(=O)N2CCCCC12,RF,3′ processing,450.5 µM
O=c1[nH]c2c(c(=O)[nH]1)C(c1ccc(I)cc1)c1c([nH]c(=O)[nH]c1=O)O2,,3′ processing,>206.6 µM
O=C(/C=C(\O)c1ccc(Cl)cc1)C(=O)NNC(=O)c1ccccc1Nc1ccccc1,,,21.2 µM
COc1cccc2c1C(=O)c1c(O)c3c(c(O)c1C2=O)C[C@@](O)(C(=O)CO)C[C@@H]3O[C@H]1C[C@H](O)[C@H](O)[C@H](C)O1,,strand transfer,11.3 µM
CCCCC[C@@H]1C=C[C@@H]2C[C@H](C)CC[C@H]2[C@]1(C)/C(O)=C1/C(=O)[C@H](CO)N(C)C1=O,,strand transfer,5 µM
Clc1nc(Cl)c2c(n1)Oc1nc(Cl)nc(Cl)c1C2c1ccccc1,,3′ processing,74 µM
CCCCCC[C@@H](C)C1=C(O)C(=O)[C@@H]2[C@H](O)[C@H](C)C[C@H](O)[C@H]2[C@]1(C)C(=O)CCO,,strand transfer,>200 µM
O=C(NCCCl)Nc1ccc(S(=O)(=O)c2ccc([N+](=O)[O-])cc2)cc1,,3′ processing,>100 µM
CC[n+]1c(-c2ccccc2)c2cc(N)ccc2c2ccc(N)cc21,,3′ processing / substrate cleavage,3 µM
CC(=O)Oc1ccc(S(=O)(=O)c2ccc(OC(C)=O)cc2)cc1,,strand transfer,>100 µM
C=C(CC[C@@H](C)[C@H]1CC=C2C3=C([C@@H](O)[C@H](OC(C)=O)[C@@]21C)[C@@]1(C)C[C@@H](O)[C@H](O)[C@@](C)(CO)[C@@H]1CC3)C(C)C,,absorbance,>100 µM

Again, the opening 5 rows:

N#CC(C#N)=NNc1ccc(S(=O)(=O)c2ccc(NN=C(C#N)C#N)cc2)cc1 ; read by: disintegration ; value: 63.5 µM
Cn1c(=O)c2cc3c(=O)n(C)c(=O)n(C)c3nc2n(C)c1=O ; read by: 3′ processing ; value: >250 µM
COc1ccc2c(c1)C(=O)N1CSCC1C(=O)S2 ; strain or isolate: RF ; read by: 3′ processing ; value: 215 µM
COc1nc(=O)[nH]c2c1C(c1ccc([N+](=O)[O-])cc1)c1c(OC)nc(=O)[nH]c1O2 ; read by: 3′ processing ; value: >250 µM
O[C@H](c1cc(C(F)(F)F)nc2c(C(F)(F)F)cccc12)[C@@H]1CCCCN1 ; read by: 3′ processing / substrate cleavage ; value: >100 µM